Anti-infective test results gathered from many reports (values: NIAID ChemDB through PubChem).

Common to all: whole-cell or culture tests; species: Poliovirus

Conditions beyond the fields shown may differ between rows.

| compound | strain or isolate | cell line | tested at | measure | value |
|---|---|---|---|---|---|
| CC(=O)c1ccc2c(c1)Sc1cc(C(C)=O)ccc1O2 | TYPE 3 | BSC-1 | 0.4 µg/mL | inhibition | 10% |
| CC(C)C/C=C/[C@@H](COS(=O)(=O)O)[C@H]1CC[C@H]2[C@@H]3CC[C@@H]4[C@H](O)[C@H](OS(=O)(=O)O)CC[C@]4(C)[C@H]3[C@@H](O)C[C@]12C | SABIN (TYPE 3) | VERO | 5 µg/mL | inhibition | 15% |
| Cc1cc(CCCCCOc2ccc(-c3ncon3)cc2)on1 | TYPE 2 | - | - | MIC | 0.05 µg/mL |
| c1ccc(C2COc3ccccc3C2)cc1 | II (TYPE 2) | HEP-2 | - | EC50 | >10 µM |
| CSc1nsc(-c2ccc(O)cc2)c1C#N | Type 1/Brunhilde | HEP-2 | - | EC50 | 0.4 µM |
| Cc1ccc(C(=O)CCCCOc2ccc(C3=NC(C)(C)CO3)cc2)s1 | TYPE 3 | VERO | - | EC50 | 4.93 µM |
| C/C(=N\O)c1ccc2c(c1)Sc1ccccc1O2 | TYPE 3 | BSC-1 | 10 µg/mL | inhibition | 100% |
| Clc1ccc2c(c1)C=C(c1ccccc1)CO2 | IA (TYPE 2) | HEP-2 | 10 µM | inhibition | 100% |
| N#Cc1c(-c2ccccc2)s[nH]c1=S | Type 1/Brunhilde | HEP-2 | - | EC50 | 0.25 µM |
| CC(=O)OC(C)c1ccc2c(c1)Sc1ccccc1O2 | TYPE 3 | BSC-1 | 0.4 µg/mL | inhibition | 33% |
| Nc1nccc2c1ncn2[C@@H]1C=C(CO)[C@@H](O)[C@H]1O | TYPE 1 | - | - | MIC | >400 µg/mL |
| CC(O)c1cccc(Cc2ccccc2)c1 | TYPE 3 | BSC-1 | 2 µg/mL | inhibition | 93% |
| CC(C)/C=C/[C@@H](COS(=O)(=O)O)[C@H]1CC[C@H]2[C@@H]3CC[C@@H]4[C@H](O)[C@H](OS(=O)(=O)O)CC[C@]4(C)[C@H]3[C@@H](O)C[C@]12C | SABIN (TYPE 3) | VERO | 20 µg/mL | inhibition | 29% |
| Nc1nccc2c1ncn2[C@@H]1C[C@H](CO)[C@@H](O)[C@H]1O | TYPE 1 | - | - | MIC | >400 µg/mL |
| S=c1cc(-c2ccccc2)s[nH]1 | Type 1/Brunhilde | HEP-2 | - | EC50 | 0.42 µM |
| Clc1ccc(C2=Cc3ccccc3OC2)cc1 | IA (TYPE 2) | HEP-2 | 10 µM | inhibition | 70% |
| CCC(=O)C(CCCCCCOc1ccc(OC)cc1Cl)C(=O)CC | MEF (TYPE 2) | HeLa | 0.27 µM | inhibition | 83% |
| CC(O)c1ccc2c(c1)Sc1cc(C(C)O)ccc1O2 | TYPE 3 | BSC-1 | 10 µg/mL | inhibition | 47% |
| Cc1ccc(C(=O)CCCCCCOc2ccc(C3=NC(C)(C)CO3)cc2)s1 | TYPE 3 | VERO | - | EC50 | 4.93 µM |
| N#Cc1c(-c2ccccc2)nsc1Cl | Type 1/Brunhilde | HEP-2 | - | EC50 | >20 µM |
| Clc1ccc(C2CCc3ccccc3O2)c(Cl)c1 | TYPE 2 | HEP-2 | 10 µM | inhibition | 5% |
| Cc1ccc(C(=O)CCCCOc2ccc(C3=N[C@H](C)CO3)cc2)s1 | TYPE 3 | VERO | - | EC50 | 0.14 µM |
| Clc1ccc(C2COc3ccc(Cl)cc3C2)cc1 | II (TYPE 2) | HEP-2 | - | EC50 | >10 µM |
| Cc1ccnc(SC/C=C/CSc2nc3cc(Cl)ccc3s2)n1 | - | - | - | MIC | 3.2 µM |
| Nc1nccc2c1ncn2[C@@H]1C=C[C@@H](O)[C@H]1O | TYPE 1 | - | - | MIC | >400 µg/mL |
| Brc1ccc(C2=Cc3ccccc3OC2)cc1 | SABIN (TYPE 2) | HEP-2 | - | EC50 | >10 µM |
| CSc1nsc(-c2c(Cl)cccc2Cl)c1C#N | Type 1/Brunhilde | HEP-2 | - | EC50 | >5 µM |

A second listing of 4 rows from above:

Cc1ccnc(SC/C=C/CSc2nc3cc(Cl)ccc3s2)n1 ; measure: MIC ; value: 3.2 µM
Cc1ccc(C(=O)CCCCCCOc2ccc(C3=NC(C)(C)CO3)cc2)s1 ; strain or isolate: TYPE 3 ; cell line: VERO ; measure: EC50 ; value: 4.93 µM
CSc1nsc(-c2ccc(O)cc2)c1C#N ; strain or isolate: Type 1/Brunhilde ; cell line: HEP-2 ; measure: EC50 ; value: 0.4 µM
CC(O)c1cccc(Cc2ccccc2)c1 ; strain or isolate: TYPE 3 ; cell line: BSC-1 ; tested at: 2 µg/mL ; measure: inhibition ; value: 93%

An empty or dashed field is not shown. ECn is the concentration giving n% inhibition of infection, replication or growth. Percent inhibition refers to the dose given; in toxicity tests it is the harm to the cells.